Marks after values point to notes of the source that are not given here.
Experiments:
[1] = test system: Zebrafish larvae; settings: across all pH values (4.3 to 7.6); formulations stored 4-5 days; 50 µM cyanide, 3 h
[2] = Osmolality of formulations

| Substance | EC100 [1] | Osmolality ([2]; mouse formulation, 291 µmole Pt/m^2, pH 6.5, estimated using the osmolality concentration curve for complex 1) | Osmolality ([2]; mouse formulation, 261 µmole Pt/m^2, pH 6.5, estimated using the osmolality concentration curve for complex 1) | Osmolality ([2]; rat toxicity formulation, 1308 µmole Pt/m^2 (5×), pH 6.5, diluted to reduce osmotic pressure) |
| --- | --- | --- | --- | --- |
| bis-(L-S-methylcysteine amide)-(S,N)platinum(II) dichloride | ≤ 15 µM |  |  |  |
| bis-(L-S-methylcysteine)-(S,N)platinum(II) dichloride | ≤ 15 µM | 608^b mmol/kg |  |  |
| bis-(L-methionine (S,N)platinum(II) dichloride | ≤ 15 µM |  | 565^b mmol/kg | 487 mmol/kg |

Reference: publication PMC10823771, “Investigating the replacement of carboxylates with carboxamides to modulate the safety and efficacy of platinum(II) thioether cyanide scavengers” (2023)
